Measurements published in paper PMC5691071.

By UniProt entry, the sequences of proteins in these tests, tags left out. Residues count along the entry.
UniProt O42275, 24-633: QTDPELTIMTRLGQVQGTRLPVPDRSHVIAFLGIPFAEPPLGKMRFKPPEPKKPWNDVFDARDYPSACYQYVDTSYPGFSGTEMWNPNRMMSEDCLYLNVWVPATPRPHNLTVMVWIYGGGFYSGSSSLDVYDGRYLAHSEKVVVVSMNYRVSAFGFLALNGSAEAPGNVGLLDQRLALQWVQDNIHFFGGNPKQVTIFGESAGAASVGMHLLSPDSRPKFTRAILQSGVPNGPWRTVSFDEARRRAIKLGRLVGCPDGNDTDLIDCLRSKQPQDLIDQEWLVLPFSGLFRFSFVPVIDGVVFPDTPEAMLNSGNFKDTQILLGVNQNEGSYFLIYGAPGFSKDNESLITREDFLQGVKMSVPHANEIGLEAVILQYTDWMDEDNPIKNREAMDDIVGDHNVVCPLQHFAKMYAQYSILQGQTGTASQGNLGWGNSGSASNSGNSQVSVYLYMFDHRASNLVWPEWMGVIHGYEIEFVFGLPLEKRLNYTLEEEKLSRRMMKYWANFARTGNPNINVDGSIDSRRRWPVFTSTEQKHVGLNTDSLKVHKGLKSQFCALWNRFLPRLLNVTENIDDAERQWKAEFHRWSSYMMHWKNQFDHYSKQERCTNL

Target: acetylcholinesterase (AChE) (UniProt O42275)
Assay: cited
Conditions: Nanopore: 100 mM KCl Tris-EDTA, pH 8, 45 min incubation; commercial protein; single-stranded DNA

With “GGTTGACTGTAGCTCTGGCAGACGTAGTGTGAAGGTACC [AChE aptamer 39-mer]” the pKd was 10.85.

pKd: −log10 of the molar value. For at least one entry, the source does not settle the construct or the ends of the probe.
